Results taken from paper PMC8780828 (Viruses, 2021).

By UniProt entry, the sequences of proteins in these tests, tags left out.
UniProt P10632, whole entry: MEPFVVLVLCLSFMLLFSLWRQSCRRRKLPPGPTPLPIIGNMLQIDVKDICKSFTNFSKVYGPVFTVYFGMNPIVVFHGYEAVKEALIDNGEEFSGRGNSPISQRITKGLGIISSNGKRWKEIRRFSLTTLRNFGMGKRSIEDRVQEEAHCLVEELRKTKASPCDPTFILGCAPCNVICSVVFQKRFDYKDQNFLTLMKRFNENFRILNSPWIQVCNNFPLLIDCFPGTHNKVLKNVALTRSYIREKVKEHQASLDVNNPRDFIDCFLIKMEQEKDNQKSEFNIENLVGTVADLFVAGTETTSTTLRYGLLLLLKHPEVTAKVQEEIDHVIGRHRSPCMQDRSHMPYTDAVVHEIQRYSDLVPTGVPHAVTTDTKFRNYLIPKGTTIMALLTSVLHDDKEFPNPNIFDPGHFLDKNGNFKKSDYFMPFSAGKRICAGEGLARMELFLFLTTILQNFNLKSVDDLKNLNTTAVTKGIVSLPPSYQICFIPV

Biological target: CYP2C8 (Homo sapiens, UniProt P10632)
Assay: in vitro
Conditions: microsomes, pH 7.4

For `O=C(O)c1cc(-c2ccc(/C=C3\SC(=S)N(CCc4ccccc4)C3=O)o2)ccc1Cl` [NBCoV1], the activity at 0.37 µM was 87.8%.
